# Laboratory results as given in PubChem BioAssay AID1117319 (Southern Research Institute, 2015).
# Chains of the proteins cited; added tags and fusions are not shown. Lines headed by an entry give the natural chain unless they say otherwise; changes in a name come on top.
# UniProt P69720: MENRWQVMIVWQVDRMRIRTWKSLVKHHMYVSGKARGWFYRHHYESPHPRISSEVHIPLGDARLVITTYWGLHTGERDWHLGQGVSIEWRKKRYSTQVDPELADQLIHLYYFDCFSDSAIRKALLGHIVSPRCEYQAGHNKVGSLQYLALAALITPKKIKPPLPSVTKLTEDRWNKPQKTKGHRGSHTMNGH
# UniProt P69721: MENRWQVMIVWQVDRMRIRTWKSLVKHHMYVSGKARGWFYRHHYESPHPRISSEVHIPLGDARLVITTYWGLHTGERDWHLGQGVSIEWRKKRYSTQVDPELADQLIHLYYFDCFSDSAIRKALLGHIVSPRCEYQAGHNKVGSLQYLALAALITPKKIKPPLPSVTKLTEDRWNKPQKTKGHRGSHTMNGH
# UniProt P69722: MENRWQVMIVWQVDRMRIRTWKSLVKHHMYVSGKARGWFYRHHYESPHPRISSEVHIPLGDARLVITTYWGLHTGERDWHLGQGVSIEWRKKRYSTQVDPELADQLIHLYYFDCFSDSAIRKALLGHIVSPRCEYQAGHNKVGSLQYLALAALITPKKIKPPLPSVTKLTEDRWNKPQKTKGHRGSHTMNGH
# UniProt P69723: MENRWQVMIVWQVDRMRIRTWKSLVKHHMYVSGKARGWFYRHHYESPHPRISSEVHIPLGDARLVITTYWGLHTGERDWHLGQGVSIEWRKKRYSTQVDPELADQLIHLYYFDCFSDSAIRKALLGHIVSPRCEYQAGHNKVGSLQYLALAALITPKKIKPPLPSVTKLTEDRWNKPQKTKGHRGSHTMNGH
# UniProt Q9HC16: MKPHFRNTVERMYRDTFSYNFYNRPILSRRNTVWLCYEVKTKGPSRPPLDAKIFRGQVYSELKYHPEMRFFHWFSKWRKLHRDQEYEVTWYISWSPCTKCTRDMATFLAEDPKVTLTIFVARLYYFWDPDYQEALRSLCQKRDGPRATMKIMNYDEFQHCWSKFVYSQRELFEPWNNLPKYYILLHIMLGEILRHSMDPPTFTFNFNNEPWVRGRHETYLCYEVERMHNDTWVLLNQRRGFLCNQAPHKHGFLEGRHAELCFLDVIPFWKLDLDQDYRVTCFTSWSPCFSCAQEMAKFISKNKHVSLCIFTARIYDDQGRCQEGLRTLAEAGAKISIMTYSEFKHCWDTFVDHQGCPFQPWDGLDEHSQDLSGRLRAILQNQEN
# Some of the results follow. Results filed as inconclusive are left out. Activity calls are given as the source filed them.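 How the source made its calls: active means inhibition above a set limit at one or more doses, reproduced on every date tested; inconclusive means results disagree between test dates, or hit never tested in dose response; inactive means the rest.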
# Target: Virion infectivity factor (Human immunodeficiency virus type 1 group M subtype B (isolate BH10)) + Virion infectivity factor (Human immunodeficiency virus type 1 group M subtype B (isolate BRU/LAI)) + Virion infectivity factor (Human immunodeficiency virus type 1 group M subtype B (isolate PCV12)) + Virion infectivity factor (Human immunodeficiency virus type 1 group M subtype B (isolate HXB2)) + DNA dC->dU-editing enzyme APOBEC-3G (Homo sapiens) (UniProt P69720+P69721+P69722+P69723+Q9HC16)
# Assay: inhibitors of Vif binding to APOBEC3G peptide, primary screen, biochemical, TR-FRET, GST-Vif 1-94, biotin-A3G peptide, dose response retest (AID 1117319);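 further: Vif residues 1-94 fused to GST binding biotinylated APOBEC3G peptide 110-148; 0% = full assay without inhibitor and 100% = GST in place of GST-Vif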
# Conditions: hits give high values
row,Compound,inhibition
1,Cc1c2c(nc3ccccc13)SC(C(Cl)Cl)C2 (stereo not given),inactive: -8.21%
2,Cc1cc(=O)[nH]c(N[N+](=O)[O-])n1,inactive: 9.72%
3,O=C(OC1CN2CCC1CC2)C12CC3CC(CC(C3)C1)C2 (stereo not given),inactive: -8.17%
4,O=P1(N(CCCl)CCCl)Nc2ccccc2N1,inactive: -3.86%
5,COc1cc(I)ccc1[As](=O)(O)O,inactive: 31.1%
6,COc1ccc2nc(NP(=O)(c3ccccc3)c3ccccc3)sc2c1,inactive: -2%
7,O=[N+]([O-])c1cc(Oc2ccc([N+](=O)[O-])cc2C(F)(F)F)cc([N+](=O)[O-])c1,inactive: 2.67%
8,COc1ccc(N/C(=N/P(=O)(N2CCOCC2)N2CCOCC2)N2CCOCC2)cc1,inactive: 22.7%
9,O=[N+]([O-])c1ccc(-c2cc([N+](=O)[O-])c(O)c([N+](=O)[O-])c2)cc1,inactive: 9.62%
10,COc1cc(C(=O)NCC2(N3CCOCC3)CCCCC2)ccc1OCC(C)C,inactive: -7.47%
11,O=[As](O)(c1ccc(O)cc1)c1ccccc1O,inactive: 9.53%
12,Cc1ccc(OP(=O)(Nc2ccc([N+](=O)[O-])cn2)Oc2ccc(C)cc2)cc1,inactive: 3.68%
13,ClCCSc1nnc(-c2cccnc2)o1,inactive: -0.69%
14,COC(=O)C1(C)COP(=O)(N2CCCCCC2)OC1 (stereo not given),inactive: -10%
15,CC(C)c1ccc(OP(=O)(Nc2ccccn2)Oc2ccccc2F)cc1 (stereo not given),inactive: -4.77%
16,O=[N+]([O-])c1cc([N+](=O)[O-])c(-c2ccn[nH]2)s1,inactive: 16.2%
17,CC(C)NC(=O)NP(=O)(Oc1ccccc1)Oc1ccccc1,inactive: 17.4%
18,O=C(OC1CN2CCC1CC2)c1cccc2[nH]cnc12 (stereo not given),inactive: -2.11%
19,CCN(CC)C(=S)SC(NC=O)C(Cl)(Cl)Cl (stereo not given),inactive: -5.82%
20,O=C(O)C(O)c1ccc(N(CCCl)CCCl)cc1 (stereo not given),inactive: -1.77%
21,CCOC(=O)Nc1ccc([As](=O)(O)O)c(O)c1,inactive: -10.2%
22,CC1CCNP(=O)(N(CCCl)CCCl)O1 (stereo not given),inactive: -14.9%

row,Compound,inhibition
1,COP(=O)(OC)N1CC1c1ccccc1 (stereo not given),inactive: -5.25%
2,CCOC(=O)Nc1cccc([As](=O)(O)O)c1,inactive: 3.68%
3,Cc1cc(SC(NC=O)C(Cl)(Cl)Cl)ncn1 (stereo not given),inactive: 13.5%
4,O=P(Nc1ccccn1)(c1cccc2ccccc12)c1cccc2ccccc12,inactive: 7.11%
5,COP1(=S)c2c(C)nn(CCC#N)c2N=C(c2ccc(F)cc2)N1C (stereo not given),inactive: 2.03%
6,O=C(Nc1ccncc1[N+](=O)[O-])c1ccc([N+](=O)[O-])cc1[N+](=O)[O-],inactive: -1.44%
7,O=C(COc1ccccc1)OC1CN2CCC1CC2 (stereo not given),inactive: -7.4%
8,CSc1ccc(Nc2c([N+](=O)[O-])cc([N+](=O)[O-])cc2[N+](=O)[O-])cc1,inactive: 7%
9,O=C(OC1CN2CCC1CC2)c1cccc([N+](=O)[O-])c1 (stereo not given),inactive: 3.33%
10,CCC(C)N(CC(C)C)C(=S)SC(NC(C)=O)C(Cl)(Cl)Cl (stereo not given),inactive: -7.95%
11,CCOP(=O)(NC(=NC(C)c1ccccc1)NC(C)c1ccccc1)OCC (stereo not given),inactive: 0.3%
12,O=P1(Nc2ccccn2)COc2ccccc2OC1,inactive: -1.5%
13,CCOP(=O)(Nc1ccc(C)cn1)OCC,inactive: -0.64%
14,CC(C)(C)C(=O)NC(Sc1ncccn1)C(Cl)(Cl)Cl (stereo not given),inactive: -14.8%
15,Clc1n[nH]nc1-c1nn[nH][15n]1,inactive: 7.93%
16,O=P1(N(CCCl)CCCl)NCCC(C(F)(F)F)O1 (stereo not given),inactive: -2.74%
17,COc1ccccc1CNC(=O)COC(=O)C(O)(c1ccccc1)c1ccccc1,inactive: -0.63%
18,CN(C(=O)Cc1ccc(Cl)c(Cl)c1)[C@@H]1CCCC[C@H]1N1CCCC1,inactive: -11.2%
19,CC(C)/C=N\N=C(\N)N[N+](=O)[O-],inactive: 3.2%
20,CC1(CBr)Cn2c(nc3ccccc3c2=O)S1 (stereo not given),inactive: -1.5%
21,O=[As](O)(c1ccccc1Br)c1ccccc1Br,inactive: -5.37%
22,Cc1ccc(C(=O)OC2CN3CCC2CC3)cc1 (stereo not given),inactive: -5.29%

row,Compound,inhibition
1,CC1CCC(C(C)C)C(OP(=O)(Nc2ccccn2)c2ccccc2)C1 (stereo not given),inactive: 1.83%
2,Cc1nn(-c2ccccc2)c2c1P(=O)(N1CCOCC1)N(C)C(c1ccccc1)=N2 (stereo not given),inactive: -3.13%
3,CN(C)C1(CNC(=O)c2ccc(S(C)(=O)=O)cc2)CCCCC1,inactive: 26.4%
4,CCCC1OP(=O)(Nc2ccccc2)OCC1CC (stereo not given),inactive: -9.95%
5,O=C(/C=C/c1ccccc1)OC1CN2CCC1CC2 (stereo not given),inactive: 2.46%
6,O=P1(Nc2ncccn2)COc2ccccc2OC1,inactive: -3.4%
7,O=[As](O)(c1cccs1)c1cccs1,inactive: 2.34%
8,Cc1ccc(OCC(=O)OC2CN3CCC2CC3)cc1 (stereo not given),inactive: 2.55%
9,NS(=O)(=O)c1cccc(NC(=O)COC(=O)C(O)(c2ccccc2)c2ccccc2)c1,inactive: 11.7%
10,O=P1(Nc2ccc(Br)cn2)COc2ccccc2OC1,inactive: -1.08%
11,O=P(Nc1nccs1)(Oc1ccccc1)Oc1ccccc1,inactive: 2.54%
12,CCOP1(=S)c2c(C)nn(CCC#N)c2N=C(c2ccccc2F)N1C (stereo not given),inactive: -9.75%
13,O=C(O)COc1ccc([As](=O)(O)O)cc1[N+](=O)[O-],inactive: 1.71%
14,NC(=O)Nc1ccc([As](=O)(O)O)cc1,inactive: 20.4%
15,CN(C(=O)Cc1ccccc1)[C@@H]1CC[C@]2(CCCO2)C[C@H]1N1CCCC1,inactive: 22.3%
16,CCOP1(=S)c2c(C)nn(CCC#N)c2N=C(c2ccc(F)cc2)N1C (stereo not given),inactive: 10.2%
17,N#CCCN(C(=O)COC(=O)C(O)(c1ccccc1)c1ccccc1)c1ccc(F)cc1,inactive: -4.65%
18,O=[N+]([O-])c1ccc2c(c1)nnn2O,inactive: 19%
19,O=C(OC1CN2CCC1CC2)c1ccc(Cl)cc1 (stereo not given),inactive: 5.96%
20,CS(=O)(=O)c1ccc(Cl)c(NC(=O)COC(=O)C(O)(c2ccccc2)c2ccccc2)c1,inactive: 7.48%
21,O=[As](O)(O)c1cccnc1,inactive: 22.4%
